Anti-infective test results gathered from many reports (values: NIAID ChemDB through PubChem).

All rows: tests in culture; agent: Mycobacterium avium complex; endpoint: MIC

Blank or dashed fields: not listed here. Rows are shuffled and stem from different studies. Two numbers with a dash give a range or band.

compound	strain	value
CO[C@H]1/C=C/O[C@@]2(C)Oc3c(C)c(O)c4c(=O)c(c5oc6cc(N7CCCC7)cc(=O)c6nc5c4c3=C2O)NC(=O)/C(C)=C\C=C\[C@H](C)[C@H](O)[C@@H](C)[C@@H](O)[C@@H](C)[C@H](OC(C)=O)[C@@H]1C	31F093T	0.15 µg/mL
CC[C@H]1OC(=O)[C@H](C)[C@@H](O[C@H]2C[C@@](C)(OC)[C@@H](O)[C@H](C)O2)[C@H](C)[C@@H](O[C@@H]2O[C@H](C)C[C@H](N(C)C)[C@H]2O)[C@](C)(OC)C[C@@H](C)C(=O)[C@H](C)[C@@H](O)[C@]1(C)O	101	1 µg/mL
CC[C@H]1OC(=O)[C@H](C)[C@@H](O[C@H]2C[C@@](C)(OC)[C@@H](O)[C@H](C)O2)[C@H](C)[C@@H](O[C@@H]2O[C@H](C)C[C@H](N(C)C)[C@H]2O)[C@](C)(OC)C[C@@H](C)C(=O)[C@H](C)[C@@H](O)[C@]1(C)O		<0.5 µg/mL
CC1COc2c(N3CCN(C)CC3)c(F)cc3c(=O)c(C(=O)O)cn1c23	711/HIV-	>16 µg/mL
CC[C@@H](CO)NCCN[C@@H](CC)CO	W6506	8 µg/mL
CO[C@H]1/C=C/O[C@@]2(C)Oc3c(C)c(O)c4c(O)c(c(/C=N/N5CCN(C6CCCC6)CC5)c(O)c4c3C2=O)NC(=O)/C(C)=C\C=C\[C@H](C)[C@H](O)[C@@H](C)[C@@H](O)[C@@H](C)[C@H](OC(C)=O)[C@@H]1C	101	4 µg/mL
CO[C@H]1/C=C/O[C@@]2(C)Oc3c(C)c(O)c4c(O)c(c5c(c4c3C2=O)NC2(CCN(CC(C)C)CC2)N=5)=NC(=O)/C(C)=C\C=C\[C@H](C)[C@H](O)[C@@H](C)[C@@H](O)[C@@H](C)[C@H](OC(C)=O)[C@@H]1C	189-4	0.5 µg/mL
CO[C@H]1/C=C/O[C@@]2(C)Oc3c(C)c(O)c4c(O)c(c(/C=N/N5CCN(C/C=C/c6ccccc6)CC5)c(O)c4c3C2=O)NC(=O)/C(C)=C\C=C\[C@H](C)[C@H](O)[C@@H](C)[C@@H](O)[C@@H](C)[C@H](OC(C)=O)[C@@H]1C	5718	0.06 µg/mL
NCC[C@H](O)C(=O)N[C@@H]1C[C@H](N)[C@@H](O[C@H]2O[C@H](CN)[C@@H](O)[C@H](O)[C@H]2O)[C@H](O)[C@H]1O[C@H]1O[C@H](CO)[C@@H](O)[C@H](N)[C@H]1O	101	1 µg/mL
NC[C@H]1O[C@H](O[C@H]2[C@H](O)[C@@H](O[C@H]3O[C@H](CO)[C@@H](O)[C@H](N)[C@H]3O)[C@H](N)C[C@@H]2N)[C@H](O)[C@@H](O)[C@@H]1O	N-251 (HIV-)	16 µg/mL
CO[C@H]1/C=C/O[C@@]2(C)Oc3c(C)c(O)c4c(O)c(c(/C=N/N5CCN(C)CC5)c(O)c4c3C2=O)NC(=O)/C(C)=C\C=C\[C@H](C)[C@H](O)[C@@H](C)[C@@H](O)[C@@H](C)[C@H](OC(C)=O)[C@@H]1C		>2.6 µg/mL
CC[C@H]1OC(=O)[C@H](C)[C@@H](O[C@H]2C[C@@](C)(OC)[C@@H](O)[C@H](C)O2)[C@H](C)[C@@H](O[C@@H]2O[C@H](C)C[C@H](N(C)C)[C@H]2O)[C@](C)(OC)C[C@@H](C)C(=O)[C@H](C)[C@@H](O)[C@]1(C)O	101	4 µg/mL
C[C@@H]1CN(c2c(F)c(N)c3c(=O)c(C(=O)O)cn(C4CC4)c3c2F)C[C@H](C)N1	101	2 µg/mL
N[C@@H]1CN(c2c(F)cc3c(=O)c(C(=O)O)cn([C@@H]4C[C@@H]4F)c3c2Cl)CC12CC2	N-966	4 µg/mL
CCSCCC(N)C(=O)O	TMC1463 (serovar 4)	>100 µg/mL
CO[C@H]1/C=C/O[C@@]2(C)Oc3c(C)c(O)c4c(O)c(c(/C=N/N5CCN(C6CCCC6)CC5)c(O)c4c3C2=O)NC(=O)/C(C)=C\C=C\[C@H](C)[C@H](O)[C@@H](C)[C@@H](O)[C@@H](C)[C@H](OC(C)=O)[C@@H]1C	Serotype 20	>40 µg/mL
CN(C)CC(=O)Nc1cc(N(C)C)c2c(c1O)C(O)=C1C(=O)[C@]3(O)C(O)=C(C(N)=O)C(=O)[C@@H](N(C)C)[C@@H]3C[C@@H]1C2	2 strains	>128 µg/mL
NCC[C@H](O)C(=O)N[C@@H]1C[C@H](N)[C@@H](O[C@H]2O[C@H](CN)[C@@H](O)[C@H](O)[C@H]2O)[C@H](O)[C@H]1O[C@H]1O[C@H](CO)[C@@H](O)[C@H](N)[C@H]1O	MO-1	32 µg/mL
CCn1cc(C(=O)O)c(=O)c2cc(F)c(N3CCN(C)CC3)cc21	CIPT 140310031	20 µg/mL
NCC[C@H](O)C(=O)N[C@@H]1C[C@H](N)[C@@H](O[C@H]2O[C@H](CN)[C@@H](O)[C@H](O)[C@H]2O)[C@H](O)[C@H]1O[C@H]1O[C@H](CO)[C@@H](O)[C@H](N)[C@H]1O	551/HIV+	2 µg/mL
OC1O[C@H](CF)[C@@H](O)[C@H](O)[C@H]1O	TMC1463 (serovar 4)	>500 µg/mL
CCN1CCN(C(=O)NC(C(=O)N[C@@H]2C(=O)N3C(C(=O)O)=C(CSc4nnnn4C)CS[C@H]23)c2ccc(O)cc2)C(=O)C1=O	35 isolates	25 µg/mL
NC[C@H]1O[C@H](O[C@H]2[C@H](O)[C@@H](O[C@H]3O[C@H](CO)[C@@H](O)[C@H](N)[C@H]3O)[C@H](N)C[C@@H]2N)[C@H](O)[C@@H](O)[C@@H]1O	ATCC 13950	25 µg/mL
C=CCCN1CCN(c2cc(=O)c3nc4c(oc3c2)c2c(=O)c3c(O)c(C)c5c(c34)=C(O)[C@@](C)(O/C=C/[C@H](OC)[C@@H](C)[C@@H](OC(C)=O)[C@H](C)[C@H](O)[C@H](C)[C@@H](O)[C@@H](C)/C=C/C=C(/C)C(=O)N2)O5)CC1	31F093T	0.07 µg/mL
NNC(=O)c1ccncc1	101	64 µg/mL
CO[C@H]1/C=C/O[C@@]2(C)Oc3c(C)c(O)c4c(=O)c(c5oc6cc(N7CCN(CC(C)C)CC7)cc(=O)c6nc5c4c3=C2O)NC(=O)/C(C)=C\C=C\[C@H](C)[C@H](O)[C@@H](C)[C@@H](O)[C@@H](C)[C@H](OC(C)=O)[C@@H]1C	31F093T	0.07 µg/mL
CO[C@H]1/C=C/O[C@@]2(C)Oc3c(C)c(O)c4c(=O)c(c5oc6cc(N7CCN(CC(C)C)CC7)cc(=O)c6nc5c4c3=C2O)NC(=O)/C(C)=C\C=C\[C@H](C)[C@H](O)[C@@H](C)[C@@H](O)[C@@H](C)[C@H](OC(C)=O)[C@@H]1C	N-444	0.06 µg/mL
CO[C@H]1/C=C/O[C@@]2(C)Oc3c(C)c(O)c4c(=O)c(c5oc6cc(N7CCCCC7)cc(=O)c6nc5c4c3=C2O)NC(=O)/C(C)=C\C=C\[C@H](C)[C@H](O)[C@@H](C)[C@@H](O)[C@@H](C)[C@H](OC(C)=O)[C@@H]1C	31F093T	0.15 µg/mL
N[C@@H]1CN(c2c(F)cc3c(=O)c(C(=O)O)cn([C@@H]4C[C@@H]4F)c3c2Cl)CC12CC2		0.25–8 µg/mL